As usually defined, the Km is the concentration of substrate that gives half-maximal velocity.

The data set concerns C=C(C)CCO[P@@](=O)(O)OP(=O)(O)O. Nature of the data set: purified protein. As to conditions: pH 7.0; 37.0 °C.

As to “Rv0989c (Mycobacterium tuberculosis H37Rv)”, the Km came to 163 µM.

As for “Rv3398c (Mycobacterium tuberculosis CDC1551)”, the Km worked out at 2.6 ± 0.4 µM.

The values above are taken from publication PMC3048469 (FEBS letters, 2011).
